Tested on: Leishmania (L.) infantum promastigotes (strain MHOM/MA/67/ITMAP-263)
Assay: Anti-promastigote activity (resazurin viability assay, 24 h)
Format: cell-based
Conditions: read-out: Anti-Promastigote Activity (IC50), 24 h at 25 °C, means of three independent experiments

c1ccc2c(NCCCNc3c4c(nc5ccccc35)CCCC4)c3c(nc2c1)CCCC3
IC50: > 100 µM

c1ccc2c(NCCCCNc3c4c(nc5ccccc35)CCCC4)c3c(nc2c1)CCCC3
IC50: > 50 µM

c1ccc2c(NCCNc3c4c(nc5ccccc35)CCCC4)c3c(nc2c1)CCCC3
IC50: > 100 µM
